Assay: general procedure: hybrid (solid and solution phase) peptide synthesis; Boc-amino acid on 2% crosslinked Merrifield resin; 1% crosslinked p-methyl benzhydrylamine (MBHA) resin for octapeptide; DCCI; DCCI/HOBt for repeat couplings; azide method for fragment couplings
Conditions: coupling step, acetate (HOAc) salt

Boc-Arg-Arg-Ser-Ser-Cys-(Acm)-Phe-Gly-Gly-Arg-Ile-Asp-Arg-Ile-Gly-Ala-Gln-Ser-Gly-Leu-Gly-Cys(Acm)-Asn-Ser-Phe-Ary-Tyr-NH2.6HOAc
final HPLC purity: 98.3%

— US4607023 (dated 1986)
